Measured values from several laboratories, pooled; numbers as filed in NIAID ChemDB.

Common to all: growth or infection tests; agent: Candida albicans; endpoint: MIC

An empty or dashed field is not shown.

C[C@H](n1cnc2cc3ccccc3cc2c1=O)[C@](O)(Cn1cncn1)c1ccc(F)cc1F ; strain or isolate: 60 strains ; result: ≤0.03 µg/mL
CN[C@@H]1[C@H](O[C@@H]2O[C@H](CO)[C@@H](O)[C@H](S(=O)(=O)O)[C@H]2O)[C@@H](O)[C@H](O[C@H]2c3cc(C)c(C(=O)N[C@H](C)C(=O)O)c(O)c3-c3c(cc4c(c3O)C(=O)c3cc(OC)cc(O)c3C4=O)[C@@H]2O)O[C@@H]1C ; strain or isolate: 8302-14 ; result: 25 µg/mL
CCCCCCCCCSc1cc(C(N)=S)ccn1 ; strain or isolate: 176 ; result: >200 µg/mL
c1ccc(-c2csc(NN=C3CCCC3)n2)cc1 ; result: 3.12 µg/mL
O=C(/C=C/c1nc2ccccc2c(=O)n1-c1ccccc1)c1ccc(N2CC(O)ON2)cc1 ; result: >200 µg/mL
CCCOc1ccc(C(=O)O)c(O)c1 ; strain or isolate: Clinical isolates ; result: 125–250 µg/mL
C[C@H]1[C@H](O)[C@@H](C)/C=C/C=C/C=C/C=C/C=C/C=C/C=C/[C@H](O[C@@H]2O[C@H](C)[C@@H](O)[C@H](N)[C@@H]2O)C[C@@H]2O[C@](O)(C[C@@H](O)C[C@@H](O)CC[C@H](O)[C@@H](O)C[C@@H](O)CC(=O)O[C@H]1C)C[C@H](O)[C@H]2C(=O)O ; strain or isolate: 83-2-14 ; result: 0.4 µg/mL
CNc1ccc(C(=O)CC(O)CCC(C)C2OC(=O)CC(O)CC(=O)CC(O)CC(O)CC(O)CC(O)CC3(O)CC(O)C(C(=O)O)C(CC(O[C@@H]4O[C@H](C)[C@@H](O)[C@H](N)[C@@H]4O)/C=C/C=C/C=C/C=C\C=C/C=C/C=C/C2C)O3)cc1 ; strain or isolate: 200 ; result: 0.12 µg/mL
CCCCCCSc1cc(C(N)=S)ccn1 ; strain or isolate: 42 ; result: 25 µg/mL
C[C@H]1N(C(=O)c2ccc(C(F)(F)F)cc2)C[C@@H](O)O[C@@]1(Cn1cncn1)c1ccc(F)cc1F ; strain or isolate: Isolate 1 ; result: 16 µg/mL
CCOC(=O)On1cn[n+](C[C@](O)(c2ccc(F)cc2F)[C@@H](C)N2CCN(c3ccc(-n4cnnn4)cc3)C2=O)c1 ; strain or isolate: TA ; result: 0.13 µg/mL
C[C@@H](n1cnc2ccc(F)cc2c1=O)[C@](O)(Cn1cncn1)c1ccc(F)cc1F ; strain or isolate: 76 strains ; result: 40 µg/mL
c1ccc(CSc2ccccc2Cn2ccnc2)cc1 ; result: 25 µg/mL
CN(C)c1ccc(-c2nc3cc(NC(=O)OCc4ccc(Cl)cc4)ccc3o2)cc1 ; strain or isolate: RSKK 628 ; result: 12.5 µg/mL
CSc1cc(C(N)=S)ccn1 ; strain or isolate: 176 ; result: 200 µg/mL
O=C(/C=C/c1nc2ccccc2c(=O)n1-c1ccc(Br)cc1)c1ccc(N2CC(O)ON2)cc1 ; result: >200 µg/mL
C[C@@H](NC(=O)c1ccc(Cl)cc1NC=O)[C@](O)(Cn1cncn1)c1ccc(F)cc1F ; strain or isolate: 406 strains ; result: ≤0.03 µg/mL
CCCCCSc1cc(C(N)=S)ccn1 ; strain or isolate: 3a ; result: 50 µg/mL
CCCCOc1ccc(C(=O)O)c(OC)c1 ; strain or isolate: Clinical isolates ; result: 125–250 µg/mL
CNc1ccc(C(=O)CC(O)CCC(C)C2OC(=O)CC(O)CC(=O)CC(O)CC(O)CC(O)CC(O)CC3(O)CC(O)C(C(=O)N4CCN(CCO)CC4)C(CC(O[C@@H]4O[C@H](C)[C@@H](O)[C@H](NC(=O)CN(C)C)[C@@H]4O)/C=C/C=C/C=C/C=C\C=C/C=C/C=C/C2C)O3)cc1 ; strain or isolate: 200 ; result: 0.06 µg/mL
CCCOC(=O)On1cn[n+](C[C@](O)(c2ccc(F)cc2F)[C@@H](C)N2CCN(c3ccc(-n4cnnn4)cc3)C2=O)c1 ; strain or isolate: TA ; result: 0.13 µg/mL
C[C@H]([C@](O)(Cn1cncn1)c1ccc(F)cc1F)S(C)(=O)=O ; strain or isolate: 406 strains ; result: 0.15 µg/mL
Cc1ccc(-n2c(/C=C/C(=O)c3ccc(N4CC(O)ON4)cc3)nc3ccccc3c2=O)cc1 ; result: 100 µg/mL
CCCCCNC(=O)C1C(O)CC2(O)CC(O)CC(O)CC(O)CC(O)CC(=O)CC(O)CC(=O)OC(C(C)CCC(O)CC(=O)c3ccc(NC)cc3)C(C)/C=C/C=C/C=C\C=C/C=C/C=C/C=C/C(O[C@@H]3O[C@H](C)[C@@H](O)[C@H](N)[C@@H]3O)CC1O2 ; strain or isolate: 200 ; result: 0.12 µg/mL
O=C(Nc1ccc2oc(-c3ccccc3)nc2c1)OCc1ccc(Cl)cc1 ; strain or isolate: RSKK 628 ; result: 25 µg/mL
CC1CCCCC/C1=N\Nc1nc(-c2ccccc2)cs1 ; result: 3.12 µg/mL
Clc1cccc(CSc2ccccc2Cn2ccnc2)c1 ; result: 50 µg/mL
O=C(Nc1ccc2oc(-c3ccccc3)nc2c1)SCc1ccccc1 ; strain or isolate: RSKK 628 ; result: 50 µg/mL
C[C@H]1[C@H](O)[C@@H](C)/C=C/C=C/C=C/C=C/C=C/C=C/C=C/[C@H](O[C@@H]2O[C@H](C)[C@@H](O)[C@H](N)[C@@H]2O)C[C@@H]2O[C@](O)(C[C@@H](O)C[C@@H](O)CC[C@H](O)[C@@H](O)C[C@@H](O)CC(=O)O[C@H]1C)C[C@H](O)[C@H]2C(=O)O ; strain or isolate: B311 ; result: 0.125 µg/mL
O=NN(CC(=O)O)c1ccc(C(=O)/C=C/c2nc3ccccc3c(=O)n2-c2ccccc2)cc1 ; result: 100 µg/mL
CCc1ccc(-c2nc3cc(NC(=O)OCc4ccccc4)ccc3o2)cc1 ; strain or isolate: RSKK 628 ; result: 50 µg/mL
CC(C)C(=O)On1cn[n+](C[C@](O)(c2ccc(F)cc2F)[C@@H](C)N2CCN(c3ccc(-n4cnnn4)cc3)C2=O)c1 ; strain or isolate: TA ; result: 0.016 µg/mL
CCCC(C)Oc1ccc(O)c(C(=O)NN)c1 ; strain or isolate: Clinical isolates ; result: 125–250 µg/mL
C[C@@H](N1CCN(c2ccc(-n3cnnn3)cc2)C1=O)[C@](O)(C[n+]1cn(OC(=O)OCCCO)cn1)c1ccc(F)cc1F ; strain or isolate: TA ; result: 0.06 µg/mL
CC(C)Oc1ccc(C(=O)NN)c(O)c1 ; strain or isolate: Clinical isolates ; result: 125–250 µg/mL
CNc1ccc(C(=O)CC(O)CCC(C)C2OC(=O)CC(O)CC(=O)CC(O)CC(O)CC(O)CC(O)CC3(O)CC(O)C(C(=O)N4CCN(C)CC4)C(CC(O[C@@H]4O[C@H](C)[C@@H](O)[C@H](NC(=O)CN5CCN(C)CC5)[C@@H]4O)/C=C/C=C/C=C/C=C\C=C/C=C/C=C/C2C)O3)cc1 ; strain or isolate: 73 ; result: 0.06 µg/mL
N/C(=N/N=C1CCCCCCC1)SCc1ccccc1Cl ; result: >200 µg/mL
CCC(C)Oc1cc(O)cc(C(=O)O)c1 ; strain or isolate: Clinical isolates ; result: 125–250 µg/mL
O=NN(CC(=O)O)c1ccc(C(=O)/C=C/c2nc3ccccc3c(=O)n2-c2ccc(Br)cc2)cc1 ; result: 50 µg/mL
CC(Sc1ccccc1Cn1ccnc1)c1ccc(Cl)c(Cl)c1 ; result: >100 µg/mL
CC(=O)Nc1ccc(C(=O)/C=C/c2nc3ccccc3c(=O)n2-c2ccc(Br)cc2)cc1 ; result: >200 µg/mL
CCCCCOc1ccc(O)c(C(=O)NN)c1 ; strain or isolate: Clinical isolates ; result: 125–250 µg/mL
N/C(=N/N=C1CCCC1)SCc1ccccc1 ; result: >200 µg/mL
O=C(Cc1ccccc1)Nc1ccc2oc(-c3ccc(F)cc3)nc2c1 ; strain or isolate: RSKK 628 ; result: 12.5 µg/mL
CCCCCCOc1cc(O)cc(C(=O)O)c1 ; strain or isolate: Clinical isolates ; result: 125–250 µg/mL
CCC(C)CC(C)CCCCCCCCC(=O)N[C@H]1C[C@@H](O)[C@@H](OCCN)NC(=O)[C@@H]2[C@@H](O)CCN2C(=O)[C@H]([C@@H](O)CCN)NC(=O)[C@H]([C@H](O)[C@@H](O)c2ccc(O)cc2)NC(=O)[C@@H]2C[C@@H](O)CN2C(=O)[C@H]([C@H](C)O)NC1=O ; strain or isolate: ATCC 64548 ; result: ≤0.007 µg/mL
CN[C@@H]1[C@H](O[C@@H]2OC[C@@H](O)[C@H](O)[C@H]2O)[C@@H](O)[C@H](O[C@H]2c3cc(C)c(C(=O)N[C@H](C)C(=O)O)c(O)c3-c3c(cc4c(c3O)C(=O)c3cc(OC)cc(O)c3C4=O)[C@@H]2O)O[C@@H]1C ; strain or isolate: ATCC 32354 ; result: 3.1 µg/mL

For reference, 3 entries again:

structure,strain or isolate,result
CCCCCSc1cc(C(N)=S)ccn1,3a,50 µg/mL
O=C(/C=C/c1nc2ccccc2c(=O)n1-c1ccccc1)c1ccc(N2CC(O)ON2)cc1,,>200 µg/mL
CCCOc1ccc(C(=O)O)c(O)c1,Clinical isolates,125–250 µg/mL

Neighbouring rows are from separate reports. a–b is a range or a potency band.